Record: PubChem BioAssay AID504761 (Drosophila RNAi Screening Center, 2011)

Screen: 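Fly genes whose silencing reduces dengue virus type 2 infection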 (primary screen)
Cells: D.Mel-2 cells from Drosophila
Reagents: long dsRNA against Drosophila genes
Challenge: infection with dengue virus type 2; dose and infection time not stated
Measured: 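Cells stained for dengue envelope protein and imaged; percent of infected cells per well on duplicate plates, ranked by infection, with stained nuclei counted for cell number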
Reading the numbers: infection score: higher = more virus-infected cells; cell count: higher = more cells in the well
Rule for the call: 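Very low infection ranking in both replicate wells (chance probability at most 0.065), then a retest showing infection dropped 1.5-fold or more at p below 0.05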
Calls: active = confirmed: knock-down lowers infection; inactive = not picked or not confirmed
In all, the deposit lists about 22,000 reagents; this is a random part of those that have a named target and a result. Over the whole deposit, 116 (0.52%) are marked active. 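Calls depend on retest data that are not deposited; infection was ranked per plate without normalising between plates; the unit of the infection score is not given.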 Raw values vary from plate to plate and are shown uncorrected. A plus sign joins genes that one reagent is predicted to hit. Not given: the amount of reagent, the time to read-out.

gene knocked down | PubChem SID | infection score, replicate 1 | infection score, replicate 2 | cell count, replicate 1 | cell count, replicate 2 | outcome
Pop2 | SID104190329 | 4.85 | 2.78 | 2063 | 2519 | inactive
Pop2 | SID104206515 | 4.3 | 3.64 | 4167 | 4260 | inactive
Pp1-13C (Protein phosphatase 1 at 13C) | SID104200061 | 3.05 | 2.45 | 5740 | 5673 | inactive
Pp1-13C (Protein phosphatase 1 at 13C) | SID104202662 | 2.13 | 7.5 | 6068 | 6324 | inactive
Pp1-13C (Protein phosphatase 1 at 13C) | SID104206036 | 8.39 | 5.82 | 6433 | 6924 | inactive
CG13678 | SID104189828 | 2.85 | 1.69 | 6388 | 6504 | inactive
Yp3 (Yolk protein 3) | SID104200094 | 1.43 | 1.94 | 6593 | 6499 | inactive
Yp3 (Yolk protein 3) | SID104204095 | 1.29 | 3.39 | 6285 | 6520 | inactive
Obp57c + Obp57b | SID104201538 | 15.1 | 11 | 5701 | 6058 | inactive
Obp57c + Obp57b | SID104203095 | 1.17 | 2.88 | 6129 | 6274 | inactive
ScsbetaA (Succinyl-coenzyme A synthetase beta subunit, ADP-forming) | SID104194238 | 8.54 | 4.94 | 5705 | 6322 | inactive
ScsbetaA (Succinyl-coenzyme A synthetase beta subunit, ADP-forming) | SID104206314 | 1.93 | 7.08 | 6675 | 6711 | inactive
CG42662 + CG30080 | SID104185363 | 3.61 | 3.33 | 5902 | 5612 | inactive
CG18748 | SID104195177 | 6.92 | 32.1 | 6880 | 5727 | inactive
Prestin | SID104190299 | 3.95 | 1.87 | 6248 | 6030 | inactive
BCL7-like | SID104197521 | 3.73 | 1.62 | 6857 | 6560 | inactive
BCL7-like | SID104208201 | – | 19.2 | 387 | 5639 | inactive
HDAC6 (Histone deacetylase 6) | SID104200044 | 2.95 | 1.36 | 6163 | 6344 | inactive
HDAC6 (Histone deacetylase 6) | SID104207892 | 14.9 | 1.23 | 5659 | 487 | inactive

Copied from the listing, 7 entries:
gene knocked down | PubChem SID | infection score, replicate 1 | infection score, replicate 2 | cell count, replicate 1 | cell count, replicate 2 | outcome
ScsbetaA (Succinyl-coenzyme A synthetase beta subunit, ADP-forming) | SID104194238 | 8.54 | 4.94 | 5705 | 6322 | inactive
ScsbetaA (Succinyl-coenzyme A synthetase beta subunit, ADP-forming) | SID104206314 | 1.93 | 7.08 | 6675 | 6711 | inactive
CG42662 + CG30080 | SID104185363 | 3.61 | 3.33 | 5902 | 5612 | inactive
CG18748 | SID104195177 | 6.92 | 32.1 | 6880 | 5727 | inactive
Prestin | SID104190299 | 3.95 | 1.87 | 6248 | 6030 | inactive
BCL7-like | SID104197521 | 3.73 | 1.62 | 6857 | 6560 | inactive
BCL7-like | SID104208201 | – | 19.2 | 387 | 5639 | inactive

The listing continues.
gene knocked down | PubChem SID | infection score, replicate 1 | infection score, replicate 2 | cell count, replicate 1 | cell count, replicate 2 | outcome
AP-1mu (Adaptor Protein complex 1, mu subunit) | SID104193881 | 3.84 | 5.26 | 6716 | 6638 | inactive
AP-1mu (Adaptor Protein complex 1, mu subunit) | SID104204288 | 0.79 | 2 | 6355 | 6049 | inactive
mRpL32 (mitochondrial ribosomal protein L32) | SID104194271 | 19.2 | – | 5921 | 277 | inactive
Tm2 (Tropomyosin 2) | SID104196679 | 2.54 | 13.4 | 5785 | 6084 | inactive
Tm2 (Tropomyosin 2) | SID104205428 | 4.87 | 12 | 6573 | 5957 | inactive
VhaM9.7-a (Vacuolar H[+] ATPase M9.7 subunit a) | SID104188081 | 6.38 | 6.81 | 5843 | 5784 | inactive
VhaM9.7-a (Vacuolar H[+] ATPase M9.7 subunit a) | SID104206884 | 16.9 | 16.5 | 4378 | 5310 | inactive
CG3777 | SID104198281 | 7.36 | 2.37 | 6660 | 6412 | inactive
CG3777 | SID104203326 | 7.76 | 1.36 | 6315 | 6342 | inactive
CG3106 | SID104198071 | 1.64 | 3.61 | 6385 | 6812 | inactive
CG3106 | SID104208009 | 2 | 19.9 | 500 | 5697 | inactive
CG31122 | SID104196078 | 8.26 | 3.33 | 6449 | 6857 | inactive
CG31122 | SID104202742 | 3.3 | 3.77 | 6457 | 6529 | inactive
mRpL35 (mitochondrial ribosomal protein L35) | SID104194378 | 1.3 | 5.75 | 6156 | 5440 | inactive
spag4 (sperm-associated antigen 4) | SID104182765 | 5.34 | 2.77 | 6345 | 6181 | inactive
COX7AL (Cytochrome c oxidase subunit 7A-like) | SID104195105 | 6.62 | 7.42 | 6949 | 6741 | inactive
COX7AL (Cytochrome c oxidase subunit 7A-like) | SID104203744 | 1.35 | 1.83 | 7127 | 6435 | inactive
HINT1 (histidine triad nucleotide binding protein 1) | SID104205046 | 4.5 | 2.61 | 6179 | 6010 | inactive
CG7829 | SID104196114 | 4.8 | 1.55 | 3438 | 6842 | inactive
CG7829 | SID104207159 | 5.86 | 7.51 | 5326 | 5285 | inactive
Slc25A46a | SID104199917 | 2.54 | 1.88 | 6152 | 6386 | inactive
CG14893 | SID104194807 | 5.52 | 16.6 | 6500 | 874 | inactive
CG5171 | SID104182615 | 9.12 | 2.69 | 5779 | 6535 | inactive
CG5171 | SID104206636 | 20.1 | 7 | 5574 | 6310 | inactive
l(3)S110416 (retired record) | SID104196886 | 5.37 | 9.53 | 6448 | 6566 | inactive
CG4770 | SID104195431 | 2.09 | 5.09 | 6208 | 5624 | inactive
Dic4 | SID104190109 | 5.82 | 2.47 | 6718 | 6682 | inactive
Dhrs4 (Dehydrogenase/reductase 4) | SID104189565 | 9.03 | 7.27 | 6501 | 6492 | inactive
thetaTry (thetaTrypsin) | SID104187497 | 14.5 | 20.6 | 6062 | 5821 | inactive
thetaTry (thetaTrypsin) | SID104208374 | 20.7 | 13.6 | 6499 | 6086 | inactive
atms (antimeros) | SID104192102 | 12.2 | 15.8 | 3651 | 3657 | inactive
atms (antimeros) | SID104206046 | 13.9 | 9.4 | 4561 | 4626 | inactive
svp (seven up) | SID104192691 | 5.37 | 3.05 | 6206 | 5601 | inactive
svp (seven up) | SID104196867 | 10.8 | 30.6 | 5459 | 5229 | inactive
svp (seven up) | SID104206308 | 11.3 | 11.1 | 6549 | 6694 | inactive
CG16813 | SID104203523 | 2.74 | 9.71 | 5510 | 6158 | inactive
Smg6 | SID104195821 | 5.97 | 3.65 | 5830 | 6034 | inactive
Smg6 | SID104206247 | 5.11 | 5.26 | 6403 | 6383 | inactive
eIF4EHP | SID104193445 | 7.59 | 4.12 | 5613 | 5758 | inactive
eIF4EHP | SID104194057 | 4.51 | 4.98 | 6474 | 6328 | inactive
